A mixed list of measured activities; the numbers were collected in NIAID ChemDB.

Shared fields: tests in culture; organism: Hepatitis C virus; read by: replicon; endpoint: EC50

Two numbers with a dash give a range or band. Lines come from different laboratories, so protocols vary. ECn is the concentration giving n% inhibition of infection, replication or growth. An empty or dashed field is not shown.

smiles,strain,cells,value
CNC(=O)C1Cc2ccccc2-c2c(C3CCCCC3)c3ccc(C(=O)NC4(CNc5ccc(/C=C/C(=O)O)cc5)CCCC4)cc3n2C1,,Huh7,0.01–1 µM
COc1cc2c(=O)c(-c3nnc(Cc4ccc(Cl)cc4)o3)cn(CC3CCCCC3)c2cc1OC,1b,,<10 µM
COc1nc(N)nc2ccc(-c3ccc(C(=O)NC4CC4)cc3)nc12,,Huh7,0.3–1 µM
CN1CCN(c2cc3c(cc2F)c(=O)c(-c2noc(C4(c5ccccc5)CC4)n2)cn3Cc2ccc(C(F)(F)F)cc2F)CC1,1b,,>10 µM
CC(C)(C)OC(=O)N1CCCCn2c(c(C3CCCCC3)c3ccc(C(=O)O)cc32)-c2cnccc21,,Huh7,>10 µM
C=CC1CC1(NC(=O)[C@@H]1C[C@@H](OC(=O)Nc2cc(C(F)(F)F)ccc2-n2cccn2)CN1C(=O)[C@@H](NC(=O)OC(C)(C)C)C(C)(C)C)C(=O)NS(=O)(=O)C1CC1,1b,Huh7,<0.1 µM
COc1cc2c(=O)c(-c3noc(C4(c5ccccc5)CC4)n3)cn(Cc3ccc(Cl)cc3)c2cc1OC,1b,,>10 µM
C=CC1CC1(NC(=O)[C@@H]1C[C@@H](OC(=O)Nc2ccccc2OCC)CN1C(=O)[C@@H](NC(=O)OC(C)(C)C)C(C)(C)C)C(=O)NS(=O)(=O)C1CC1,1b,Huh7,0.1–1 µM
O=C(O)c1ccc2c(C3CCCCC3)c3n(c2c1)CC(C(=O)NCCO)Cc1ccccc1-3,,Huh7,0.01–1 µM
NS(=O)(=O)c1ccc(CNc2nc(NCC(F)(F)F)c3nc(-c4ccc(F)c(NS(=O)(=O)C5CC5)c4)ccc3n2)cc1,,,<0.1 µM
CC(C)(C)OC(=O)/C=C/c1ccc(NC(=O)C2(NC(=O)c3ccc4c(C5CCCCC5)c5n(c4c3)CC(=O)Nc3cccnc3-5)CCCC2)cc1,,Huh7,0.01–1 µM
NS(=O)(=O)c1ccc(CNc2nc(NCC(F)(F)F)c3nc(-c4ccc(Cl)c(S(N)(=O)=O)c4)ccc3n2)cc1,,,<0.1 µM
COc1ccc2c(=O)c(-c3noc(Cc4ccccc4)n3)cn(Cc3ccc(C(F)(F)F)cc3)c2c1,1b,,<10 µM
NS(=O)(=O)c1ccc(CNc2nc(C3CC3)c3nc(-c4ccc(F)c(S(N)(=O)=O)c4)ccc3n2)cc1,,,<0.1 µM
C=CC1CC1(NC(=O)[C@@H]1C[C@@H](OC(=O)Nc2ccccc2-n2cccn2)CN1C(=O)[C@@H](NC(=O)OC(C)(C)C)C(C)(C)C)C(=O)NS(=O)(=O)C1CC1,1b,Huh7,0.1–1 µM
NS(=O)(=O)c1ccc(CNc2nc(Oc3cccc(F)c3)c3nc(-c4ccc(F)cc4)ccc3n2)cc1,,,<0.1 µM
CN1CCN(c2cc3c(cc2F)c(=O)c(-c2noc(CC4CCCC4)n2)cn3Cc2ccc(C(F)(F)F)cc2F)CC1,1b,,<10 µM
O=C(NC1(C(=O)OCc2ccccc2)CCCC1)c1ccc2c(C3CCCCC3)c3n(c2c1)CCCc1cc(O)ccc1-3,,Huh7,1–10 µM
CN1CCN(c2cc3c(cc2F)c(=O)c(-c2noc(C(CC#N)c4ccccc4)n2)cn3Cc2ccc(Cl)cc2)CC1,1b,,>10 µM
O=C(O)/C=C/c1ccc(NC(=O)C2(NC(=O)c3ccc4c(c3)nc(-c3ccoc3)n4C3CCCCC3)CCC2)cc1,1b,,1.6 µM
NC(=O)c1ccc(-c2ccc3nc(NCc4ccc(S(N)(=O)=O)cc4)nc(NC4CC4)c3n2)cc1,,,<0.1 µM
COC(=O)c1ccc2c(C3CCCCC3)c3n(c2c1)CC(N1CCOCC1)Cc1cccnc1-3,,Huh7,0.01–1 µM
C=CC1CC1(NC(=O)[C@@H]1C[C@@H](OC(=O)N(C)c2ccccc2)CN1C(=O)[C@@H](NC(=O)OC(C)(C)C)C(C)(C)C)C(=O)NS(=O)(=O)C1CC1,1b,Huh7,1–10 µM
CC(=O)NCCCCC(c1ccccc1)c1nc(-c2cn(Cc3ccc(Cl)cc3)c3cc(N4CCN(C)CC4)c(F)cc3c2=O)no1,1b,,<10 µM
CC(Nc1nc(NCC(F)(F)F)c2nc(-c3ccc(F)cc3)ccc2n1)c1ccc(S(N)(=O)=O)cc1,,,<0.1 µM
CN(CC(N)=O)c1cc2c(cc1F)c(=O)c(-c1noc(Cc3ccccc3)n1)cn2Cc1ccc(C(F)(F)F)cc1,1b,,<0.5 µM
NS(=O)(=O)c1ccc(CNc2nc(NCC(F)(F)F)c3nc(-c4cn[nH]c4)ccc3n2)cc1,,,<0.1 µM
COC(=O)/C=C/c1ccc(NC(=O)C2(NC(=O)c3ccc4c(C5CCCCC5)c5n(c4c3)CC(=O)Nc3cccnc3-5)CCCC2)cc1,,Huh7,0.01–1 µM
CCOc1nc(N)nc2ccc(-c3ccc(C(=O)Nc4ccc(F)cc4)cc3)nc12,,Huh7,0.3–1 µM
C=CC1CC1(NC(=O)[C@@H]1C[C@@H](OC(=O)Nc2c(Cl)cccc2Cl)CN1C(=O)[C@@H](NC(=O)OC(C)(C)C)C(C)(C)C)C(=O)NS(=O)(=O)C1CC1,1b,Huh7,1–10 µM